# Laboratory results published in patent US20190218170A1, “BRANCHED TRIALKYLAMINE PRECURSORS, INTERMEDIATES, PRODUCTS MADE THEREFROM AND PROCESSES OF MANUFACTURE” (priority 2018, published 2019).
# How the values were obtained:
# [1] = Stain removal in cold water, brightness L*; conditions: Sebum; additive 0.05% active in wash solution of 12% LAE7 base formulation; 20° C.
# [2] = Stain removal in cold water, brightness L*; conditions: Red lipstick; additive 0.05% active in wash solution of 12% LAE7 base formulation; 20° C.
# Experimental: Amine oxides with linear and branched hydrophobes were compared in a screen for stain removal in cold water. Simple laundry liquid formulations were made that included only surfactants and builder.
# Standard stain swatches were purchased from Testfabrics, Inc. (West Pittston, Pa.). STC/CFT PC-S-216 is diluted red lipstick on poly/cotton (65/35), and STC/CFT PC-S-132 is high discriminative sebum (synthetic) with pigment on poly/cotton, both made by Center for Testmaterials BV (CFT; The Netherlands). The swatches were pre-cut into 2 inch squares. The test formulation was diluted with DI water to 0.06% total surfactant to make the wash solution. Additives were added at a final concentration of 0.05% active in the wash solution. Stained fabric swatches were added to the wash solution, washed and rinsed at 20° C., and air-dried. The average swatch brightness (L*) for each treatment, and standard deviation, are reported for 3 replicates. […] All treatments are brighter than the untreated stain swatches. The nonionics NPE and LAE7 removed the lipstick and sebum stains to the same brightness.
structure (smiles),measurement,setting,value
"CCCCC(CC)CC(C)C[N+](C)(C)[O-] (centres unmarked) [Example 65, 4-ethyl-N,N-2-trimethyloctan-1-amine oxide]",avg L*,[1],72.7
same,avg L*,[2],76.3
